Sequences of proteins named here, by UniProt entry; tags and fusion partners are left off. A change or cut given only in a name is not applied to a line headed by its entry.
UniProt P86926: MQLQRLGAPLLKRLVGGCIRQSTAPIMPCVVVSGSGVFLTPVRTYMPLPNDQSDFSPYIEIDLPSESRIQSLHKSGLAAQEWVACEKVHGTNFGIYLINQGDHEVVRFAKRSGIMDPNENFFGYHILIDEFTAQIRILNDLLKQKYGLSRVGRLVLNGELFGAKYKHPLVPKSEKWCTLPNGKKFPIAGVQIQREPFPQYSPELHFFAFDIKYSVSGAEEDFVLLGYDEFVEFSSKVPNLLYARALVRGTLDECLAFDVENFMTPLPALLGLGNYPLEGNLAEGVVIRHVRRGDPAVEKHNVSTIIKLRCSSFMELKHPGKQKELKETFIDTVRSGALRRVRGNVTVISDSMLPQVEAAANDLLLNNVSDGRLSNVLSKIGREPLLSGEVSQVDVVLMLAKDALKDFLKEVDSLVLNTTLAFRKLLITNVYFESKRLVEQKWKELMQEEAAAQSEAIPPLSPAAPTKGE

The entries are a selection whose mix differs from that of the whole data set. Calls of active or inactive are those of the source.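 Rule for the calls: active = inhibition above the mean inhibition across all screened compounds plus 3 SD (cut at about 11% in these data); inactive = the rest.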
The molecules below were run against RNA-editing ligase 1, mitochondrial (Trypanosoma brucei brucei) (UniProt P86926) (assay: TbREL1 RNA ligase inhibitors, primary screen, biochemical, FRET fluorescence (AID 1117264;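 note: 0% = plate median of test wells and 100% = NSC42067 control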)). Conditions: TbREL1 RNA ligation, at 9.66 µM, stronger effect = higher value.
In the case of CCN(N=Nc1nonc1N)c1nonc1N, the inhibition was inactive: -0.23%. For CN1CCCC(OC(=O)C(c2ccccc2)c2ccccc2)C1 (stereo unspecified), the inhibition was inactive: -2.08%. For NC(=O)c1cc([N+](=O)[O-])cc([N+](=O)[O-])c1N, the inhibition was inactive: -0.02%. With CC(=O)N1C2C3N(C(C)=O)C1C1N(C(C)=O)C(C(N1C(C)=O)N3C(C)=O)N2C(C)=O the inhibition was inactive: -1.21%. With COc1ccc(C2=NCC(CBr)S2)cc1 (stereo unspecified) the inhibition was inactive: 6.83%. CC(C)c1nc(Nc2ccccc2)n(P(=O)(N(C)C)N(C)C)n1 was tested, and the inhibition was inactive: -0.94%. With Nc1ccc([As](=O)(O)c2ccc(N)cc2)cc1 the inhibition was inactive: 3.05%. With O=P1(N(CCCl)CCCl)OCCCS1 (stereo unspecified) the inhibition was inactive: 1.93%. In the case of CC(C)(C)C(=O)NC(Sc1ccncn1)C(Cl)(Cl)Cl (stereo unspecified), the inhibition was inactive: -6.94%. O=C(OC1CN2CCC1CC2)c1cccc(Cl)c1 (stereo unspecified) was tested, and the inhibition was inactive: 0.71%. With c1nnnn1CCn1cnnn1 the inhibition was inactive: 3.23%. With O=P1(Nc2nc3ccc(Cl)cc3s2)COc2ccccc2O1 (stereo unspecified) the inhibition was inactive: -0.34%. For CC(=O)Nc1ccc([As](=O)(O)O)c(O)c1, the inhibition was inactive: -1.72%. C[C@@H]1C=CCP(=O)(Oc2ccccc2)O1 (stereo partly specified) was tested, and the inhibition was inactive: 4.91%. For CC(NC(=O)COC(=O)C(O)(c1ccccc1)c1ccccc1)c1ccccc1 (stereo unspecified), the inhibition was inactive: -1.81%. In the case of CN(C)C(=O)c1cc([N+](=O)[O-])cc2c1-c1c(cc([N+](=O)[O-])cc1[N+](=O)[O-])C2=O, the inhibition was inactive: 4.99%. In the case of O=[As](O)(O)c1cccnc1, the inhibition was inactive: 1.91%. COc1cc(C(=O)NCC2(N3CCOCC3)CCCCC2)cc(Cl)c1OC(C)C was tested, and the inhibition was inactive: -0.97%. CC(C)/C=N\N=C(\N)N[N+](=O)[O-] was tested, and the inhibition was inactive: 0.11%. In the case of Cc1nn(-c2ccccc2)c2c1P(=O)(N1CCOCC1)N(C)C(c1ccccc1)=N2 (stereo unspecified), the inhibition was inactive: -0.04%. With Cc1ccc(C(=O)OC2CN3CCC2CC3)cc1 (stereo unspecified) the inhibition was inactive: 6.04%. With Nc1cccc([As](=O)(O)c2ccccc2)c1 the inhibition was inactive: 0.68%. For Cc1ccc(OCC(=O)OC2CN3CCC2CC3)cc1 (stereo unspecified), the inhibition was inactive: 1.06%. For O=P1(Nc2ccc(Br)cn2)COc2ccccc2OC1, the inhibition was inactive: 3.39%. In the case of Cc1cc(SC(NC(=O)c2ccccc2)C(Cl)(Cl)Cl)nc(C(C)C)n1 (stereo unspecified), the inhibition was inactive: -3.3%. With CCOC(=O)Nc1ccc([As](=O)(O)O)c(O)c1 the inhibition was inactive: 1.05%. For O=C(OC1CN2CCC1CC2)c1cccc([N+](=O)[O-])c1 (stereo unspecified), the inhibition was inactive: -0.34%. CCOC(=O)c1ccc(NC(=O)C(C)(CCl)SC)cc1 (stereo unspecified) was tested, and the inhibition was inactive: 0.26%. With O=C(OC1CN2CCC1CC2)C12CC3CC(CC(C3)C1)C2 (stereo unspecified) the inhibition was inactive: 4.27%. In the case of [N-]=[N+]=NC1CCCCC1NC(=O)c1cc([N+](=O)[O-])cc([N+](=O)[O-])c1 (stereo unspecified), the inhibition was inactive: 1.25%. In the case of CCN(CC)C(=S)SC(NC=O)C(Cl)(Cl)Cl (stereo unspecified), the inhibition was inactive: 4.49%.

— PubChem BioAssay AID1117264 (The Scripps Research Institute Molecular Screening Center, 2014)
